In article PMC12444507 (ACS Omega, 2025):

Test system: SARS-CoV-2 strain JPN/TY/WK-521 (SARS-CoV-2^WK-521, ancestral Wuhan strain)
Format: cell-based

CC(C)(C)[C@H](NC(=O)C(F)(F)F)C(=O)N1C[C@H]2[C@@H]([C@H]1C(=O)N[C@@H](C[C@@H]1CCNC1=O)C(=O)c1nc3cc(F)ccc3s1)C2(C)C [TKB272 (8)]
enhancement of antiviral activity compared to TKB245 (6): approximately 3 fold
